Data as given in PubChem BioAssay AID624099 (ICCB-Longwood, 2012).

- Assay: 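Human genes that papillomavirus E2 requires to repress the HPV18 LCR promoter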 (primary screen)
- Cells: human C33A cervical carcinoma cells (HPV-negative) stably expressing BPV1 E2 and an HPV18 LCR luciferase reporter
- Reagents: siRNA pool against human genes, 40 nM
- Timing: 72 h
- Measured: 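HPV18 LCR reporter light per well, converted to plate-wise z-scores that exclude control wells, and averaged over triplicate plates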
- Reading the numbers: mean z-score and z-score: higher = stronger reporter signal, weaker E2 silencing
- Rule for the call: 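Hit if mean z-score reaches 2 and two or more of three replicate z-scores also reach 2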
The deposit covers about 21,000 reagents; below is a part drawn at random. 497 of them (2.4%) count as active. 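Higher z means weaker E2 silencing; only reporter increases were scored, and knock-downs that hurt cell survival may mask genuine repressor factors.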 Unmarked entries are inactive.

target gene,mean z-score,"z-score, replicate A","z-score, replicate B","z-score, replicate C"
NEUROD1 (GeneID 4760),-0.6,-0.62,-0.79,-0.39
ACADL (GeneID 33),0.72,0.67,0.72,0.77
ZNF442 (GeneID 79973),-0.18,-0.1,0.25,-0.68
MPP7 (GeneID 143098),0.2,0.13,0.28,0.2
DEFB127 (GeneID 140850),0.33,0.27,-0.09,0.81
OR5M8 (GeneID 219484),0.15,0.11,0.16,0.19
SBSN (GeneID 374897),0.39,0.39,0.16,0.62
GRB10 (GeneID 2887),0.11,0.22,-0.08,0.17
MMADHC (GeneID 27249),1.35,1.34,1.39,1.32
FBP1 (GeneID 2203),0.52,0.56,0.36,0.65
VTI1BP2 (GeneID 389246),1.17,0.8,1.8,0.93
ARHGAP15 (GeneID 55843),0.46,0.41,0.49,0.49
SMG7 (GeneID 9887),-1.83,-1.81,-1.79,-1.88
TFPT (GeneID 29844),-0.6,-0.32,-0.62,-0.87
NAT8B (GeneID 51471),-0.09,0.45,-0.73,0.02
NR4A2 (GeneID 4929),0.21,0.48,0.08,0.08
PRTFDC1 (GeneID 56952),-0.67,-0.64,-0.75,-0.63
INHBC (GeneID 3626),0.66,0.54,0.52,0.91
MAGOHB (GeneID 55110),-0.1,0.35,0.28,-0.93
LTB4R2 (GeneID 56413),0.45,0.61,0.18,0.56
OR2T2 (GeneID 401992),-1.51,-1.75,-1.44,-1.34
TNFRSF10C (GeneID 8794),0.73,0.63,0.74,0.83
YIPF5 (GeneID 81555),1.38,1.74,1.24,1.16
SREK1IP1 (GeneID 285672),-0.89,-0.66,-1.25,-0.77
TBX20 (GeneID 57057),1.51,1.49,1.66,1.37
RUSC1-AS1 (GeneID 284618),-3.47,-3.74,-3.26,-3.41
LOC400714 (retired record) (GeneID 400714),-0.44,-0.56,-0.42,-0.34
IQSEC2 (GeneID 23096),0.01,-0.29,0.14,0.19
JAKMIP3 (GeneID 282973),1.1,0.51,1.34,1.45
AREG (GeneID 374),0.39,0.16,0.7,0.31
BLOC1S1 (GeneID 2647),-1.08,-0.97,-1.15,-1.11
ATP8B4 (GeneID 79895),-1.72,-1.37,-1.63,-2.15
LOC388421 (retired record) (GeneID 388421),-0.99,-0.89,-1.13,-0.96
CCDC197 (GeneID 256369),-0.25,-0.31,-0.11,-0.34
SNCAIP (GeneID 9627),-1.46,-1.76,-1.41,-1.23
MMP23A (GeneID 8511),-0.86,-0.84,-0.68,-1.06
SLC7A13 (GeneID 157724),-0.56,0.03,-0.8,-0.91
SCAMP4 (GeneID 113178),-0.04,0.07,0.09,-0.3
AQP6 (GeneID 363),1.8,1.89,1.94,1.57

Look-ups from the entries so far.
Value for ATP8B4 (GeneID 79895) in “z-score, replicate A”: -1.37
SCAMP4 (GeneID 113178), mean z-score: -0.04
AQP6 (GeneID 363), mean z-score → 1.8
JAKMIP3 (GeneID 282973), z-score, replicate C = 1.45
For “z-score, replicate B”, ARHGAP15 (GeneID 55843) shows 0.49
LOC388421 (retired record) (GeneID 388421), mean z-score: -0.99
